A mixed list of measured activities; the numbers were collected in NIAID ChemDB.

Common to all: whole-cell or culture tests; organism: HIV-1

ECn is the concentration giving n% inhibition of infection, replication or growth. An empty or dashed field is not shown. Conditions beyond the fields shown may differ between rows.

| SMILES | strain or isolate | cell line | measure | method | mutations | value |
|---|---|---|---|---|---|---|
| Cc1cc(C#N)cc(C)c1Oc1nc(Nc2ccc(NS(=O)(=O)c3ccc(-c4ccccc4)cc3)cc2)nc2ccsc12 | IIIB | MT-4 | EC50 | MTT |  | 3.6 µM |
| O=C(NCCc1ccccc1)Nc1nc2ccc(Cl)cc2s1 |  | MT-4 | EC50 | cytopathic effect / XTT |  | <10 µg/mL |
| CC(C)c1c(Cc2ccccc2)n(COCc2ccccc2)c(=O)[nH]c1=O | A17 | MT-4 | EC50 | p24 / ELISA | K103N | >10 µM |
| Cc1cc(C#N)cc(C)c1Oc1nc(NC2CCN(S(C)(=O)=O)CC2)nc2ccsc12 | IIIB | MT-4 | EC50 | MTT |  | 0.58 µM |
| CC(C)[C@H](NC(=O)[C@H](Cc1ccc2c(c1)OCO2)C[C@H](O)[C@H](Cc1ccccc1)NC(=O)OC(C)(C)C)C(=O)N[C@@H](Cc1ccccc1)C(=O)N1CCOCC1 | MN | MT-2 | EC90 | RT activity |  | 0.01 µM |
| Nc1nc2c(ncn2[C@H]2C[C@H](O)[C@@H](CO)O2)c(=O)o1 | IIIB | U-937/HIV-1(IIIB) + U-937 | EC50 | RT activity |  | >100 µg/mL |
| O=C1CN(C(=O)c2cc(-c3cc(F)cc(OC(F)F)c3)n(-c3ccnc(Cl)c3)n2)CCN1 | NL4-3 | MT-4 | EC50 | luminescence | K103N/Y181C | 1.138 µM |
| O=C(NCCc1ccccc1)Nc1nc2ccccc2s1 |  | MT-4 | EC50 | RT activity |  | <1 µg/mL |
| CC[n+]1c(-c2ccccc2)c2cc(-n3cccc3)ccc2c2ccc(N)cc21 |  | HeLa | EC50 |  |  | 1.5 µM |
| COc1ccc(C[C@H](C[C@H](O)[C@H](Cc2ccccc2)NC(=O)OC(C)(C)C)C(=O)N[C@H](C(=O)N[C@@H](Cc2ccccc2)C(=O)N2CCOCC2)C(C)C)c(OC)c1OC | MN | MT-2 | EC50 | RT activity |  | <1 µM |
| CC(C)C1=C2[C@H]3CC[C@@H]4[C@@]5(C)CC[C@H](OC(=O)[C@H]6C[C@@H](C(=O)O)C6(C)C)C(C)(C)[C@@H]5CC[C@@]4(C)[C@]3(C)CC[C@@]2(CCNCC(C)(CN)NC(=O)c2ccc(Cl)cc2)CC1=O | 92HT599 | MT-2 | EC50 | p24 / ELISA |  | <1 µM |
| COc1cc(O)c(C2CCCCN2C)c2oc(-c3ccccc3)cc(=O)c12 | RF | CEM + CEM-SS | EC50 | cytopathic effect / XTT |  | >5.7 µM |
| O=c1[nH]c(SCc2cn[nH]n2)nc(-c2ccc(Cl)cc2)c1Cl | IIIB |  | EC50 |  |  | 0.8 µg/mL |
| Nc1ncnc2c1ncn2[C@H]1C=CC[C@@H](CO)C1 | RF | CEM + CEM-SS | EC50 | cytopathic effect / XTT |  | >50 µg/mL |
| Cc1c(N)nc(Nc2ccc(C#N)cc2)nc1C(C)c1c(F)cccc1F | NL4-3 | MT-4 | EC50 | MTT |  | 0.0006 µM |
| O=C(NCCc1ccccc1)NCc1ccoc1 |  | MT-4 | EC50 | cytopathic effect / XTT |  | >10 µg/mL |
| CC(C)C1=C2[C@H]3CC[C@@H]4[C@@]5(C)CC[C@H](OC(=O)[C@H]6C[C@@H](C(=O)O)C6(C)C)C(C)(C)[C@@H]5CC[C@@]4(C)[C@]3(C)CC[C@@]2([C@@H](O)CNCc2ncccn2)CC1=O | 92HT599 | MT-2 | EC50 | p24 / ELISA |  | <1 µM |
| C/C=C1/C(=O)NC(=O)N1[C@H]1C[C@H](N=[N+]=[N-])[C@@H](CO)O1 | IIIB | MT-4 | EC50 | ELISA |  | >10 µM |
| COCCNC(=O)[C@@H](NC(=O)[C@H](Cc1ccc(OC)c(OC)c1OC)C[C@H](O)[C@H](Cc1ccccc1)NC(=O)OC(C)(C)C)C(C)C | MN | MT-2 | EC90 | RT activity |  | 0.03 µM |
| O=c1[nH]c(SCc2cn[nH]n2)nc(-c2ccccc2)c1Cl | ADA5 |  | EC50 |  |  | 1.2 µg/mL |
| Nc1nc2c(ncn2[C@@H]2O[C@H](CO)[C@@H](O)[C@H]2O)c(=O)o1 | IIIB | H9 | EC50 | RT activity |  | >30 µg/mL |
| Cc1cc(C#N)cc(C)c1Oc1nc(NC2CCN(S(=O)(=O)c3ccc4ccccc4c3)CC2)nc2ccsc12 | IIIB | MT-4 | EC50 | MTT |  | 0.74 µM |
| O=C(O)c1cc(C(c2ccc(O)c(C(=O)O)c2)c2ccc(O)c(C(=O)O)c2)ccc1O | IIIB | CEM | EC50 | cytopathic effect / XTT |  | 0.6 µg/mL |
| CC(C)(C)OC(=O)N[C@@H](Cc1ccccc1)[C@@H](O)C[C@]1(Cc2ccccc2)NC=C(C2c3ccccc3[C@H]3NC(=O)O[C@@H]23)C1=O |  |  | EC50 | p24 |  | <0.2 µM |
| O=C(O)c1cccc(Cc2cccc(C(=O)O)c2O)c1O | IIIB | MT-4 | EC50 | cytopathic effect / MTT |  | >40 µg/mL |
| Cc1cc(C#N)cc(C)c1Oc1nc(NC2CCN(S(=O)(=O)c3ccc([N+](=O)[O-])cc3)CC2)nc2ccsc12 | IIIB | MT-4 | EC50 | MTT |  | 0.85 µM |
| CN(N=O)C(=O)NCCCCC(NC(=O)OCc1ccccc1)C(=O)OCc1ccccc1 | IIIB | CEM-IW + CEM | EC50 | cytopathic effect / XTT |  | >39.8 µM |
| CC(C)C1=C2[C@H]3CC[C@@H]4[C@@]5(C)CC[C@H](OC(=O)[C@H]6C[C@@H](C(=O)O)C6(C)C)C(C)(C)[C@@H]5CC[C@@]4(C)[C@]3(C)CC[C@@]2([C@@H](O)CNC[C@@H]2CCCN2)CC1=O | 92HT599 | MT-2 | EC50 | p24 / ELISA |  | <1 µM |
| CC(=O)N1C(=O)[C@@H](Cc2ccc(Cl)cc2)NC1=S |  | MT-4 | EC50 | cytopathic effect / XTT |  | >100 µg/mL |
| OC[C@@H]1CC=C[C@H](n2nnc3c(Cl)ncnc32)C1 | RF | CEM + CEM-SS | EC50 | cytopathic effect / XTT |  | >50 µg/mL |
| CCOCn1c(Cc2ccccc2)c(C(C)C)c(=O)[nH]c1=O | CC2 | PBMC | EC50 | p24 |  | 0.01 µM |
| CCNc1cccnc1N1CCN(C(=O)c2cc3ccccc3o2)CC1 |  | PBL | EC50 | p24 |  | ≥1 µM |
| COCCNC(=O)[C@@H](NC(=O)[C@H](Cc1cccc(OC)c1)C[C@H](O)[C@H](Cc1ccccc1)NC(=O)OC(C)(C)C)C(C)C | MN | MT-2 | EC50 | RT activity |  | <0.03 µM |
| O=C(c1cc(-c2cc(F)cc(OC(F)(F)F)c2)n(-c2ccnc(Cl)c2)n1)N1CCSC1 | NL4-3 | MT-4 | EC50 | luminescence | K103N/Y181C | 3.3 µM |
| CCOCCCNC(=O)[C@@H](NC(=O)[C@H](Cc1ccc(OC)c(OC)c1OC)C[C@H](O)[C@H](Cc1ccccc1)NC(=O)OC(C)(C)C)C(C)C | MN | MT-2 | EC50 | RT activity |  | <0.03 µM |
| C#CCNC(=O)NC(CCCNC(=O)OCc1ccccc1)C(=O)OCc1ccccc1 | IIIB | CEM-IW + CEM | EC50 | cytopathic effect / XTT |  | >99.4 µM |
| Nc1nc2c(ncn2[C@@H]2O[C@H](COP(=O)(O)O)[C@@H](O)[C@H]2O)c(=O)o1 | IIIB | U-937/HIV-1(IIIB) + U-937 | EC50 | RT activity |  | 21 µg/mL |
| CCCCCCCCCCCCCCc1sc(NC(=O)NCCc2ccccc2)nc1-c1ccc(Cl)cc1 |  | MT-4 | EC50 | cytopathic effect / XTT |  | >100 µg/mL |
| CC(C)C1=C2[C@H]3CC[C@@H]4[C@@]5(C)CC[C@H](OC(=O)[C@H]6C[C@@H](C(=O)O)C6(C)C)C(C)(C)[C@@H]5CC[C@@]4(C)[C@]3(C)CC[C@@]2(CCNC[C@H]2CCCCN2)CC1=O | 92HT599 | MT-2 | EC50 | p24 / ELISA |  | <1 µM |
| Cn1cc(C(=O)N2CCC(c3cc(CCOc4ccccc4C(F)(F)F)[nH]n3)C2)cn1 | BaL | TZM-bl | EC90 | luciferase |  | 8.41 µM |
| O=C1c2ccccc2C(=O)c2c1cc(S(=O)(=O)O)c(O)c2O | IIIB | MT-4 | EC50 | cytopathic effect |  | 47.5 µg/mL |
| Nc1nc(N)c2ncn([C@H]3C=CC[C@@H](CO)C3)c2n1 | RF | CEM + CEM-SS | EC50 | cytopathic effect / XTT |  | >50 µg/mL |
| Cc1cc(C#N)cc(C)c1Oc1nc(NC2CCN(S(=O)(=O)c3ccc(C#N)cc3)CC2)nc2ccsc12 | IIIB | MT-4 | EC50 | MTT |  | 0.44 µM |
| O=C1c2ccccc2C(=O)c2c1ccc(O)c2O | IIIB | SupT1 + Sup-T1 | EC50 | cytopathic effect |  | >50 µg/mL |
| CC(C)CCCCCCCCCCCN(C)OP(=O)(O)N(CC(N)=O)P(=O)(O)OC1C(OC[C@H]2O[C@@H](n3ccc(=O)[nH]c3=O)[C@H](O)[C@@H]2O)=C(CO)C(O)C1O | IIIB | MOLT-4 | EC50 | cytopathic effect / MTT |  | 0.4 µM |
| COc1cc(C[C@H](C[C@H](O)[C@H](Cc2ccccc2)NC(=O)OC(C)(C)C)C(=O)N[C@H](C(=O)N[C@@H](Cc2ccccc2)C(=O)N2CCOCC2)C(C)C)cc(OC)c1OC | MN | MT-2 | EC90 | RT activity |  | 1 µM |
| C#CCNC(=O)NCCCCC(NC(=O)OCc1ccccc1)C(=O)OCc1ccccc1 | IIIB | CEM-IW + CEM | EC50 | cytopathic effect / XTT |  | >31.7 µM |
| Cc1c(CN2CCC(c3cc(CCOc4ccc(C(F)(F)F)cc4)[nH]n3)C2)cnn1C | BaL | TZM-bl | EC50 | luciferase |  | >100 µM |
| Nc1nc(Cl)c2ncn([C@H]3C=CC[C@@H](CO)C3)c2n1 | RF | CEM + CEM-SS | EC50 | cytopathic effect / XTT |  | >50 µg/mL |
| C#CCN(N=O)C(=O)NC(CCCNC(=O)OCc1ccccc1)C(=O)OCc1ccccc1 | IIIB | CEM-IW + CEM | EC50 | cytopathic effect / XTT |  | >28.2 µM |
| O=C(C1CCCCC1)N1CCC(c2cc(CCOc3cccc(C(F)(F)F)c3)[nH]n2)C1 | BaL | TZM-bl | EC90 | luciferase |  | 18.2 µM |
| CC[n+]1c(-c2ccccc2)c2cc(N)ccc2c2ccc(NC(N)=O)cc21 |  | HeLa | EC50 |  |  | 15 µM |
| CC(C)C1=C2[C@H]3CC[C@@H]4[C@@]5(C)CC[C@H](OC(=O)[C@H]6C[C@@H](C(=O)O)C6(C)C)C(C)(C)[C@@H]5CC[C@@]4(C)[C@]3(C)CC[C@@]2([C@@H](O)CNC(=O)C(C)(C)NC(=O)c2ncccn2)CC1=O | 92HT599 | MT-2 | EC50 | p24 / ELISA |  | <1 µM |
| Cc1cn([C@H]2C[C@H](N=[N+]=[N-])[C@@H](CO)[C@@H]2F)c(=O)[nH]c1=O |  |  | EC50 |  |  | 100 µg/mL |
| CCC(=O)Nc1ccn([C@H]2CC[C@@H](CO)O2)c(=O)n1 |  |  | EC50 | cytopathic effect |  | 36 µM |
| CC(C)C1=C2[C@H]3CC[C@@H]4[C@@]5(C)CC[C@H](OC(=O)[C@H]6C[C@@H](C(=O)O)C6(C)C)C(C)(C)[C@@H]5CC[C@@]4(C)[C@]3(C)CC[C@@]2([C@@H](O)CNC(=O)C(C)(C)NC(=O)CN(C)C)CC1=O | 92HT599 | MT-2 | EC50 | p24 / ELISA |  | <1 µM |
| N#Cc1csc(NC(=O)NCCc2ccccc2)n1 |  | MT-4 | EC50 | cytopathic effect / XTT |  | >100 µg/mL |
| C#CCN(N=O)C(=O)NC(CCCCNC(=O)OCc1ccccc1)C(=O)OCc1ccccc1 | IIIB | CEM-IW + CEM | EC50 | cytopathic effect / XTT |  | >29.1 µM |
| COCC(=O)N1CCC(c2cc(CCOc3ccccc3C(F)(F)F)[nH]n2)C1 | BaL | TZM-bl | EC50 | luciferase |  | 2.17 µM |
| O=C(NCCc1ccccc1)Nc1nc(C(F)(F)F)cs1 |  | MT-4 | EC50 | RT activity |  | <1 µg/mL |
| COP(=O)(c1cc(C)cc(CCC#N)c1)c1c(C(N)=O)[nH]c2ccc(Cl)c(F)c12 | NL4-3 | MT-4 | EC50 | p24 / ELISA |  | 0.002 µM |
| CCC(=O)OC[C@@H]1CC[C@H](n2ccc(N)nc2=O)O1 |  |  | EC50 | cytopathic effect |  | 1.6 µM |

For reference, 7 entries again:

SMILES	strain or isolate	cell line	measure	method	mutations	value
Cc1cn([C@H]2C[C@H](N=[N+]=[N-])[C@@H](CO)[C@@H]2F)c(=O)[nH]c1=O			EC50			100 µg/mL
CC(C)CCCCCCCCCCCN(C)OP(=O)(O)N(CC(N)=O)P(=O)(O)OC1C(OC[C@H]2O[C@@H](n3ccc(=O)[nH]c3=O)[C@H](O)[C@@H]2O)=C(CO)C(O)C1O	IIIB	MOLT-4	EC50	cytopathic effect / MTT		0.4 µM
O=c1[nH]c(SCc2cn[nH]n2)nc(-c2ccc(Cl)cc2)c1Cl	IIIB		EC50			0.8 µg/mL
CN(N=O)C(=O)NCCCCC(NC(=O)OCc1ccccc1)C(=O)OCc1ccccc1	IIIB	CEM-IW + CEM	EC50	cytopathic effect / XTT		>39.8 µM
COc1ccc(C[C@H](C[C@H](O)[C@H](Cc2ccccc2)NC(=O)OC(C)(C)C)C(=O)N[C@H](C(=O)N[C@@H](Cc2ccccc2)C(=O)N2CCOCC2)C(C)C)c(OC)c1OC	MN	MT-2	EC50	RT activity		<1 µM
CC(C)C1=C2[C@H]3CC[C@@H]4[C@@]5(C)CC[C@H](OC(=O)[C@H]6C[C@@H](C(=O)O)C6(C)C)C(C)(C)[C@@H]5CC[C@@]4(C)[C@]3(C)CC[C@@]2([C@@H](O)CNC(=O)C(C)(C)NC(=O)c2ncccn2)CC1=O	92HT599	MT-2	EC50	p24 / ELISA		<1 µM
N#Cc1csc(NC(=O)NCCc2ccccc2)n1		MT-4	EC50	cytopathic effect / XTT		>100 µg/mL